Legend:
[1] = Storage stability of lyophilized samples, assayed for purity; assay type: physicochemical; details: −23° C.
[2] = system: Lewis Lung Carcinoma; assay: Response of s.c. Lewis lung carcinoma in mice (Table 3)

SMILES	purity after storage ([1]; 0 months) [%]	purity after storage ([1]; 1 months) [%]	purity after storage ([1]; 3 months) [%]	T-C (tumor growth delay to 750 mg) ([2]; 30 mg kg^-1/dose IP, Day 2 Q5 min × 7) [days]	T-C (tumor growth delay to 750 mg) ([2]; 200 mg kg^-1/dose IP, Day 2 Single dose) [days]
O=P(O)(NCCCl)NCCCl	97	88	70		
NP(=O)(O)N(CCCl)CCCl				6.1	4.9
